Test results from PMC4959772.

Experiments:
[1] = system: MBP-GlnR (Streptococcus mutans GS5); assay: EMSA; conditions: EMSA: 20 mM Tris pH 8.0, 5 mM MgCl2, 100 mM KCl, 2 mM DTT, 1 ug BSA, 0.5 ug salmon sperm DNA, 0.025 pmol probe in 20 ul, 4 C, 30 min, 6% polyacrylamide gel, recombinant protein, protein details: N-terminal MBP, label: 3' biotin
[2] = system: MBP-PmrA (Streptococcus mutans GS5); assay: EMSA; conditions: 8-512 nM protein, EMSA: 20 mM Tris pH 8.0, 5 mM MgCl2, 100 mM KCl, 2 mM DTT, 1 ug BSA, 0.5 ug salmon sperm DNA, 0.025 pmol probe in 20 ul, 4 C, 30 min, 6% polyacrylamide gel, recombinant protein, protein details: N-terminal MBP, label: 3' biotin

| Sequence | binding result ([1]; 8-256 nM protein) | binding result ([2]; more protein needed than GlnR) | further results |
| --- | --- | --- | --- |
| CTTTTTTGTTATATGTTATGTTTTTTAACATTTCTATCTA (double strand) [pnrgA-2] | – | – | binding result ([1]; 8-256 nM protein, nrgA-1 is the major target): binds more weakly |
| GTATAACAATATAATGTTAGAAAAGCTAACAATAAATTTA (double strand) [pglnQ] | binds | binds | – |
| CTATTTTTATGTTATAAAACATAACATAAAATGCAAGCTT (double strand) [pcitB] | binds | binds | – |
| GTTTAGAGTTTATGTCAGGAAATATGACATATAGGCTTGA (double strand) [pglnR] | binds | binds | – |
| TACCTCCCTTTATGTTATATAATATAACATTATTCCTAAA (double strand) [pnrgA-1] | – | – | binding result ([1]; 8-256 nM protein, major nrgA target): binds; binding result ([2]; major nrgA target): binds |
| TATAGACTGTTATGTAAGGAAATATAACATCTATTATTAA (double strand) [pglnP] | binds | binds | – |
| TTAATCTAATGAATGTTATTTTTTATAACATGAAAGAATA (double strand) [pgdhA] | binds | binds | – |
| TAAACATTTTATGTAGAAAAACTACATTTATTGTAATATA (double strand) [ppmrA] | – | – | binding result ([1]; 16-512 nM protein): binds; binding result [2]: binds |

The exact form of at least one protein or probe is not confirmed. For part of these data: Weaker means in comparison with the reference protein, sequence or condition of that experiment. At least one verdict rests on a figure or table, not on a statement of the authors.
